Several values for one entry are separate records, joined by “and”; a condition that tells them apart may be missing. Equal entries are not always repeated.
Columns and labels:
[1] = target: SARS-COV-2-S RBD extracellular domain expressed with a C-terminal myc-myc-hexahistidine (SARS-COV-2 RBD-MMH) (SARS-CoV-2)
[2] = target: SARS-CoV-2-S RBD extracellular domain expressed with a C-terminal myc-myc-hexahistidine tag (SARS-COV-2 RBD-MMH) (SARS-CoV-2)

| Substance | 90 nM RBD.mmh Bound (RU) [1] | 90 nM RBD · mmh Bound (RU) [2] |
| --- | --- | --- |
| Isotype Control (antibody) | 4 RU and 9 RU |  |
| mAb10933 |  | 119 RU |

Source: patent US20220356230A1
